Test [1] addresses T1, S. mansoni TGR (Schistosoma mansoni, UniProt Q962Y6). The conditions noted are these: read-out: IC50 S. mansoni TGR, GSSG (GR activity), 100 μM GSSG, 15 min preincubation with 100 μM NADPH.
The target in test [2] is T1, S. mansoni TGR. The conditions noted are these: read-out: IC50 S. mansoni TGR, DTNB (TrxR activity), 3 mM DTNB, 15 min preincubation with 100 μM NADPH.

Protein sequences, listed by entry. Tags and fused reporters are not part of them. Residues count along the entry.
UniProt Q962Y6, 1-598: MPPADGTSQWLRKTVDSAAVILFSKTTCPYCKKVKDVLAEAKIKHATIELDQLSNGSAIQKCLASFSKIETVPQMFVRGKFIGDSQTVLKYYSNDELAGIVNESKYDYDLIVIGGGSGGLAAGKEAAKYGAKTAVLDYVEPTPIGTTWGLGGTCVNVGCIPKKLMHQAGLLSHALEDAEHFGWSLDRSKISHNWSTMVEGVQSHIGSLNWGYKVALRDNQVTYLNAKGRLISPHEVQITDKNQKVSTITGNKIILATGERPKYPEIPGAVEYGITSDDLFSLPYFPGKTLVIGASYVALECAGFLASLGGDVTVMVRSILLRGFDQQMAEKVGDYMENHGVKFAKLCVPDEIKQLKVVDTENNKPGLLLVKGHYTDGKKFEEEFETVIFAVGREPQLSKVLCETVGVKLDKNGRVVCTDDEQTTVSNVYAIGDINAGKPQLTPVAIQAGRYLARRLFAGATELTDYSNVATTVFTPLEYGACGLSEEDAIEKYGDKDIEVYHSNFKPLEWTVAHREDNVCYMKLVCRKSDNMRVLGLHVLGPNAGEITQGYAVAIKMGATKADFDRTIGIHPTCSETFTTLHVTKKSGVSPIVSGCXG

Structures are written as SMILES. Read-outs that look alike come from different tables or passages of the source.

IC50 data for 3 compounds are collected here from article PMC1892040 (PLoS Medicine, 2007).

By IC50 is commonly meant the point on the concentration scale where inhibition reaches its midpoint.

In the case of `CN(C)CCC(=O)/C=C/c1ccccc1Cl`, the IC50 in test [1] (tested form: HCl) was 0.5 µM; in test [2] (tested form: HCl) it was 7 µM.

In the case of `CC1=C(CBr)C(=O)c2c(O)ccc(O)c2C1=O`, the figures for the IC50 in test [1] and in test [2] were 1 µM and 0.5 µM, respectively.

On to `CC(C)(C)OC(=O)NCCCC1=C(CCCNC(=O)OC(C)(C)C)C(=O)c2c(O)cccc2C1=O`, for which the IC50 in test [1] and in test [2] was 8 µM throughout.
